Where two headings read alike, the source gives them in different places.
How the values were obtained:
influenza RNP = influenza RNP (Influenza A virus, UniProt P15659); experiment: RNP reconstitution reporter assay; assay type: cell-based; details: for RNP activities in RNP screening: highest non-cytotoxic concentration of each compound; for IC50: read-out: RNP assay IC50
[1] = system: influenza virus (A/WSN/33); experiment: Viral yield reduction assay, A/WSN/33 in MDCK cells; assay type: cell-based; details: for inhibition of influenza viral yield (in words): A/WSN/33, 0.01 MOI, up to 100 μM
[2] = molecular target: PAC (C-terminal domain of PA, residues 256–716 of A/WSN/33) (Influenza A virus, UniProt P15659); experiment: Microscale thermophoresis (MST) with PAC; assay type: binding, influenza A/WSN/33; details: read-out: MST Kd; Kd model, NanoTemper MO.Control; Kd ± confidence level
[3] = 50% inhibition of RNP activity vs DMSO control, 293T cells, mean ± SD, three experiments

Row | Structure (SMILES) | RNP activities in RNP screening (influenza RNP) | IC50 (influenza RNP; [3]) [µM] | IC50 [1] [µM] | inhibition of influenza viral yield (in words) [1] | IC50 (influenza RNP) [µM] | Kd [2] [µM]
1 | O=c1c(-c2ccccc2)c(O)c2c(n1-c1ccccc1)CCCC2 | able to inhibit RNP activities | 98.5 | > 100 | unable to inhibit influenza viral yield at 100 μM | – | –
2 | O=C1C2=C(CCC2)NC2C1C(=O)N(c1ccccc1)C(=O)N2c1ccccc1 (centres unmarked) | able to inhibit RNP activities | > 100 | > 100 | unable to inhibit influenza viral yield at 100 μM | – | –
3 | Cn1c(=O)c(Cc2ccccc2)c(O)c2c(=O)n(-c3ccccc3)c(=O)n(-c3ccccc3)c21 | significant attenuation of RNP transcriptional activities | – | 30.6 | – | 68.8 | –
4 | CC1(C)CC(=O)c2c(O)c(-c3ccccc3)c(=O)n(-c3ccccc3)c2C1 | able to inhibit RNP activities | 96.5 | > 100 | unable to inhibit influenza viral yield at 100 μM | – | –
5 | O=C1C(c2ccccc2)=C(O)c2cccc3c(=O)n(-c4ccccc4)c(O)c1c23 | able to inhibit RNP activities | > 6.25 | 4.78 | dose-dependent inhibition of influenza virus | – | 6.03
